Laboratory results taken from US11331351B2, “Bacillus strains improving health and performance of production animals” (priority 2015, dated 2022).

Test system: S. aureus ATCC 29213
Conditions: control strain

## Gentamycin
Replicate MIC 1
  MIC 1: 0.5 µg/mL
Replicate MIC 2
  MIC 2: 0.5 µg/mL
Replicate MIC 3
  MIC 3: 0.5 µg/mL
Replicate MIC 4
  MIC 4: 1 µg/mL
Replicate MIC 5
  MIC 5: 1 µg/mL
